Source: article PMC4613828 (PLoS Pathogens, 2015)

Assays:
Experiment in all cases: microbe, parasite or virus in culture
Format in all cases: cell-based
Conditions in all cases: Enterovirus C, BGM
[1] = test system: PV3 (poliovirus type 3 strain Sabin)
[2] = test system: PV1 (poliovirus type 1 strain Sabin)
[3] = test system: PV2 (poliovirus type 2 strain Sabin)

Q: For `CCON=Cc1ccc(OCCC(C)CCN2CCN(c3ccnc(N)c3)C2=O)cc1` (stereo not drawn) [NLD], which EC50 [1] is on record?
A: 95 ± 29 nM

Q: And the EC50 [2]?
A: 900 ± 400 nM

Q: What about the EC50 [3] of the same compound?
A: 40 nM
